Here are results for one molecule from patent US20260382574A1, “CRYSTAL OF SPIRO COMPOUND AND PREPARATION METHOD THEREFOR” (published 2026).

The structures appear in SMILES notation.

The data set is described as follows: Body weight / toxicity in infected K18-hACE2 transgenic mice. The following applies: 50 and 200 mg/kg + ritonavir, 4 days after infection; model group reduced by about 10%.

On to `CC(C)(C)[C@H](NC(=O)C(F)(F)F)C(=O)N1CC2(C[C@H]1C(=O)N[C@H](C#N)C[C@@H]1CCNC1=O)SCCS2`, for which the body weight result is recorded as “not significantly reduced”.
